In article PMC7954794, “Protein context shapes the specificity of SH3 domain-mediated interactions in vivo” (Nature Communications, 2021):
The amount applied is not stated for every result.

These molecules were tested on ABP1 (assay: DHFR-PCA on solid medium, bait ABP1 (Fig. 1B)). Conditions: bait ABP1, label = prey.
Assay type: cell-based, Saccharomyces cerevisiae
Parameters: key: 0: SH3-independent; 1: SH3-dependent PPIs; 2: SH3-inhibited PPIs
Description: Supplement 41467_2021_21873_MOESM8_ESM.xlsx, sheet "Fig1B" | column: medsize; medrep; Ratio; Score

Molecule	Score
YML035C (protein, UniProt P15274 1-810, looked up) AMP deaminase: MDNQATQRLNDLSLEPAPSHDEQDGSGLVIDIDQRKIGDEQAGVVVDDETPPLEQQDSHESLAADSRNANFSYHENQQLLENGTKQLALDEHDSHSAILEQPSHSTNCSSSNIAAMNKGHDSADHASQNSGGKPRTLSASAQHILPETLKSFAGAPVVNKQVRTSASYKMGMLADDASQQFLDDPSSELIDLYSKVAECRNLRAKYQTISVQNDDQNPKNKPGWVVYPPPPKPSYNSDTKTVVPVTNKPDAEVFDFTKCEIPGEDPDWEFTLNDDDSYVVHRSGKTDELIAQIPTLRDYYLDLEKMISISSDGPAKSFAYRRLQYLEARWNLYYLLNEYQETSVSKRNPHRDFYNVRKVDTHVHHSACMNQKHLLRFIKHKLRHSKDEKVIFRDGKLLTLDEVFRSLHLTGYDLSIDTLDMHAHKDTFHRFDKFNLKYNPIGESRLREIFLKTNNYIKGTYLADITKQVIFDLENSKYQNCEYRISVYGRSLDEWDKLASWVIDNKVISHNVRWLVQIPRLYDIYKKTGIVQSFQDICKNLFQPLFEVTKNPQSHPKLHVFLQRVIGFDSVDDESKVDRRFHRKYPKPSLWEAPQNPPYSYYLYYLYSNVASLNQWRAKRGFNTLVLRPHCGEAGDPEHLVSAYLLAHGISHGILLRKVPFVQYLYYLDQVGIAMSPLSNNALFLTYDKNPFPRYFKRGLNVSLSTDDPLQFSYTREPLIEEYSVAAQIYKLSNVDMCELARNSVLQSGWEAQIKKHWIGKDFDKSGVEGNDVVRTNVPDIRINYRYDTLSTELELVNHFANFKRTIEEK	0
YBL007C (protein, UniProt P32790 1-1244, looked up) Actin cytoskeleton-regulatory …: MTVFLGIYRAVYAYEPQTPEELAIQEDDLLYLLQKSDIDDWWTVKKRVIGSDSEEPVGLVPSTYIEEAPVLKKVRAIYDYEQVQNADEELTFHENDVFDVFDDKDADWLLVKSTVSNEFGFIPGNYVEPENGSTSKQEQAPAAAEAPAATPAAAPASAAVLPTNFLPPPQHNDRARMMQSKEDQAPDEDEEGPPPAMPARPTATTETTDATAAAVRSRTRLSYSDNDNDDEEDDYYYNSNSNNVGNHEYNTEYHSWNVTEIEGRKKKKAKLSIGNNKINFIPQKGTPHEWSIDKLVSYDNEKKHMFLEFVDPYRSLELHTGNTTTCEEIMNIIGEYKGASRDPGLREVEMASKSKKRGIVQYDFMAESQDELTIKSGDKVYILDDKKSKDWWMCQLVDSGKSGLVPAQFIEPVRDKKHTESTASGIIKSIKKNFTKSPSRSRSRSRSKSNANASWKDDELQNDVVGSAAGKRSRKSSLSSHKKNSSATKDFPNPKKSRLWVDRSGTFKVDAEFIGCAKGKIHLHKANGVKIAVAADKLSNEDLAYVEKITGFSLEKFKANDGSSSRGTDSRDSERERRRRLKEQEEKERDRRLKERELYELKKARELLDEERSRLQEKELPPIKPPRPTSTTSVPNTTSVPPAESSNNNNSSNKYDWFEFFLNCGVDVSNCQRYTINFDREQLTEDMMPDINNSMLRTLGLREGDIVRVMKHLDKKFGRENIASIPTNATGNMFSQPDGSLNVATSPETSLPQQLLPQTTSPAQTAPSTSAETDDAWTVKPASKSESNLLSKKSEFTGSMQDLLDLQPLEPKKAAASTPEPNLKDLEPVKTGGTTVPAAPVSSAPVSSAPAPLDPFKTGGNNILPLSTGFVMMPMITGGDMLPMQRTGGFVVPQTTFGMQSQVTGGILPVQKTGNGLIPISNTGGAMMPQTTFGAAATVLPLQKTGGGLIPIATTGGAQFPQTSFNVQGQQQLPTGSILPVQKTANGLISANTGVSMPTVQRTGGTMIPQTSFGVSQQLTGGAMMTQPQNTGSAMMPQTSFNAVPQITGGAMMPQTSFNALPQVTGGAMMPLQRTGGALNTFNTGGAMIPQTSFSSQAQNTGGFRPQSQFGLTLQKTGGIAPLNQNQFTGGAMNTLSTGGVLQQQQPQTMNTFNTGGVMQELQMMTTFNTGGAMQQPQMMNTFNTDGIMQQPQMMNTFNTGGAMQQPQQQALQNQPTGFGFGNGPQQSRQANIFNATASNPFGF	0
YMR216C (protein, UniProt Q03656 1-742, looked up) Serine/threonine-protein …: MGSSINYPGFVTKSAHLADTSTDASISCEEATSSQEAKKNFFQRDYNMMKKAPAPTKSKLSLALQTSKSSSSANGTVQEDTSSKTEDFSTKSIKKKPDSGVESHVSIQSDSGPQSDSDLDSDSSISSCDERNEESLKDYRPGGYHPAFKGEPYKDARYILVRKLGWGHFSTVWLAKDMVNNTHVAMKIVRGDKVYTEAAEDEIKLLQRVNDADNTKEDSMGANHILKLLDHFNHKGPNGVHVVMVFEVLGENLLALIKKYEHRGIPLIYVKQISKQLLLGLDYMHRRCGIIHTDIKPENVLMEIGDVEGIVQMVEALDKQKREAKRLQRHVSRSSDITANDSSDEKWAECQTSMPCGSSSNSKSRSIEKDLSKRCFRRPRRHTIITGSQPLPSPISSSNFFEMRAHFCGSSHNSFSSVSGNRNIPSSINNNSINNGIGIKNSNNSFLNSVPHSVTRMFINEDSNDNNNNDNSKNKNNNNNNSNNNNNEDIMNTPLHEEQLADSLSTFDISNISQSSDTNGPYISNTMDSNSNVSTDINSPENLIQIKIADLGNACWYDEHYTNSIQTREYRSPEVLLGAPWGCGADIWSTACLIFELITGDFLFEPDEGHSYTKDDDHIAQIIELLGELPSYLLRNGKYTRTFFNSRGLLRNISKLKFWPLEDVLTEKYKFSKDEAKEISDFLSPMLQLDPRKRADAGGLVNHPWLKDTLGMEEIRVPDRELYGSGSDIPGWFEEVRDHKRH	0
YNL020C (protein, UniProt P53974 1-638, looked up) Actin-regulating kinase 1: MNQPQIGTYNVGTQLTVGSHQVEIIKYLTSGGFAQVYSALINPPDPHSNSSVACLKRVIVPDKPSLNTLRAEVDAMRLLKNNRYVVSYIDSHAAKAMLHNGSYEVFVLMEYCERGGLIDFMNTRLQNRLHEFEILQIMSQVTQGVAAMHALQPPLIHRDIKIENVLISANNEYKLCDFGSVCGIIRPPRNSQELSYVQQDILKNTTAQYRSPEMIDTFRGLPIDEKSDIWALGIFLYKLCYYTTPFEKGGDLAILSGKFEFPLYPNYSEQLKGLIRDILVQDPRHRPNVYQLLKRISIMQNVPCPINDIQVVQAPSSHLNLTELHQLSATQNILSLNSPTTMENTMPNATFQISMADNTTTAQMHPNRKPSQIAYDASFSNSAKGSQPLFDKSQNMYHALDPPLVEPLASSVSNNDNELKANSATKLKQAIVSEAHTFRQNNSIDFPLQNIIPQYEDSSSSSDESYSGDVDELKKTRSLGSYSTRGNIKKNQSVKESLTSSSLPGTSFTPTSTKVNLKHENSPFKSTFVNTIDNSKDDLNKPSYEDLDVSKQNLKNSIQQRMIDKLNSSEESFNARKMSKVKLHEKGEIDKPTMLKSSGPISKDKKTKPTPPPKPSHLKPKPPPKPLLLAGRKLSLDK	0
YNL084C (protein, UniProt P39013 1-349, looked up) Actin cytoskeleton-regulatory …: MPKLEQFEIKKYWQIFSGLKPIENKVNHDQVLPILYNSKLDSSVLNKIWFLADIDDDDNLDFEEFVICMRLIFDMVNKNISSVPDELPDWLIPGSKVNLIKERKKRKQIENADLPPKKEIKVDWYMSPDDLNQYEKIYNSCAKLTDGTITFNELSTKLSTKFFNISKTDLNKVWSLINPQNLPSIDRDPTFYFIHCLRQRNDLGAEIPASLPNSLAEVCNKKQLSYDLRSSQPPTKRKEEANEVDNLRDNGQNSSSDSSGSNVLSNEDSIKQKYASLTDDQVANMREQLEGLLNYKKSEKTQGGSKLSKRINIRSITDDLDNIEQQVEVLENYLNNKRHELQALQAEIN	0
YNL098C (protein, UniProt P01120 2-319, looked up) Ras-like protein 2: PLNKSNIREYKLVVVGGGGVGKSALTIQLTQSHFVDEYDPTIEDSYRKQVVIDDEVSILDILDTAGQEEYSAMREQYMRNGEGFLLVYSITSKSSLDELMTYYQQILRVKDTDYVPIVVVGNKSDLENEKQVSYQDGLNMAKQMNAPFLETSAKQAINVEEAFYTLARLVRDEGGKYNKTLTENDNSKQTSQDTKGSGANSVPRNSGGHRKMSNAANGKNVNSSTTVVNARNASIESKTGLAGNQATNGKTQTDRTNIDNSTGQAGQANAQSANTVNNRVNNNSKAGQVSNAKQARKQQAAPGGNTSEASKSGSGGCC	0
YNL106C (protein, UniProt P50942 1-1183, looked up) Polyphosphatidylinositol …: MKILLSKQQTRKIAIVSETHGLVFRPINSKNSRRSTCAVELVPKAELNGNGFRRLSNHEIYGFIGLIEIEGLMFIATITGKSKVAQPIPNKTVNKIYAVDFFCLNNSKWDFMDIDSSGYPIVTNDGDFAISSPPSISTHSSRSSLRSSSSRSLNAQEQAPKHPCHELRKLLSNGSFYYSTDFDLTCTLQKRGFTEHSLSFDDFDREFMWNSFLMDEIITYRDRLDVTAKELLDQRGFLTTVIRGFAETIFSYINRLKVGLTIISRQSWKRAGTRFNARGIDDDGHVANFVETEMIMYSSQYCYAFTQIRGSLPIFWEQDTSLISPKIQITRSVEATQPTFDEHFIRLFKKYGPVHIINLLSTKSSEIQLSRRYKEQLKNSEKMKIGRDVFLTSFDFHRETSQDGFAAASRIIPKIRNTILDAGYFSYDVKEGRLISEQDGVFRTNCLDCLDRTNLIQQTISLAVFKLFLEDFRLVKPSSFIDDNEFVQKVNALWADNGDQISQIYTGTNALKSSYSRKGKMSFSGALSDATKSVSRMYINNFVDKGKQQNIDTLLGKLPHQQVVELYDPICEYVNERLLESEEKFTTHSNINLFVGTFNVNGNSRRADLSKWLFPIGDKFKPDVVVLGLQEVIELTAGSILNADYTKSSFWETMVTDCLNQYEEKYLLLRVEQMSSLLILFFARSDRAYNIKEVGGSTKKTGFGGITGNKGAVAIRFDYGATSFCFVNTHLSAGASNIDERRNDYNNIYRNITFPRSKTIPHHDSLFWLGDLNYRITLTNDEVRRELRAQKDGYIDRLLQYDQLTQEINEGVVFQGFKEPTLQFRPTYKYDYGTDNYDTSEKARTPSWTDRIIYKGENLHPLAYSDAPLKISDHKPVYAAYRANVKFVDEKEKLNLVEKLYAEYKNTHPEALTTGPDELSHARMEKQKESIPLDATVQSAGIKLIDLDDTSSCVSPLLSGPSPQPSVVGPGGLSNVSPDKSKLNVLPPPPPTSRHNKEPSSKLLSPTKEISIVSVSPRKGESNLPALERHSTPKPLPPVPALSLSKPVSLQKSSSELQHAKETIDNGKIVPRPCPPIRRKSSTAPDEISTSTKNSGVSTTEDPEPAKASTKPEKPPVVKKPHYLSVAANKLNTSQEHSIKVSPSNSKSEEELPCKKKSKPKVPAKNPELEKLSVHPLKPCDPN	0
YNL229C (protein, UniProt P23202 2-354, looked up) Transcriptional regulator URE2: MNNNGNQVSNLSNALRQVNIGNRNSNTTTDQSNINFEFSTGVNNNNNNNSSSNNNNVQNNNSGRNGSQNNDNENNIKNTLEQHRQQQQAFSDMSHVEYSRITKFFQEQPLEGYTLFSHRSAPNGFKVAIVLSELGFHYNTIFLDFNLGEHRAPEFVSVNPNARVPALIDHGMDNLSIWESGAILLHLVNKYYKETGNPLLWSDDLADQSQINAWLFFQTSGHAPMIGQALHFRYFHSQKIASAVERYTDEVRRVYGVVEMALAERREALVMELDTENAAAYSAGTTPMSQSRFFDYPVWLVGDKLTIADLAFVPWNNVVDRIGINIKIEFPEVYKWTKHMMRRPAVIKALRGE	0
